Experimental data: PubChem BioAssay AID624099 (ICCB-Longwood, 2012)
Assay: 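Host factors E2 relies on to silence an HPV18 LCR reporter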 (primary screen). Cell system: human C33A cervical carcinoma cells (HPV-negative) stably expressing BPV1 E2 and an HPV18 LCR luciferase reporter. Knock-down reagent: siRNA pool against human genes, 40 nM. Duration: 72 h. Detection: 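Per-well luciferase luminescence, z-scored on each plate against the plate mean and SD with control wells left out, then averaged across three replicate plates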. Direction: mean z-score and z-score: higher = stronger reporter signal, weaker E2 silencing. Active means: 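Hit if mean z-score reaches 2 and two or more of three replicate z-scores also reach 2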.
This is one part, drawn at random, of about 21,000 deposited reagents. In the full data, 497 (2.4%) got an active call. 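Higher z means weaker E2 silencing; only reporter increases were scored, and knock-downs that hurt cell survival may mask genuine repressor factors.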

| gene knocked down | mean z-score | z-score, replicate A | z-score, replicate B | z-score, replicate C | call |
| --- | --- | --- | --- | --- | --- |
| CDH1 (cadherin 1) | 0.95 | 0.4 | 1.14 | 1.33 | inactive |
| IL13 (interleukin 13) | -1.75 | -1.54 | -2.09 | -1.62 | inactive |
| LOC388563 (retired record) | 0.94 | 1.24 | 1.04 | 0.54 | inactive |
| TDRD3 (tudor domain containing 3) | -0.76 | -0.9 | -0.45 | -0.92 | inactive |
| TBC1D3F (TBC1 domain family member 3F) | -0.1 | 0.16 | -0.22 | -0.24 | inactive |
| MRPL12 (mitochondrial ribosomal protein L12) | -0.34 | -0.48 | -0.28 | -0.26 | inactive |
| CTSL3P (cathepsin L family member 3, pseudogene) | -0.82 | -0.91 | -0.68 | -0.86 | inactive |
| NPL (N-acetylneuraminate pyruvate lyase) | -0.22 | -0.31 | -0.45 | 0.11 | inactive |
| ZNF892 (zinc finger protein 892) | 2.26 | 1.85 | 3.17 | 1.76 | inactive |
| GDI1 (GDP dissociation inhibitor 1) | 1.08 | 1.47 | 0.69 | 1.08 | inactive |
| FYB2 (FYN binding protein 2) | 1.16 | 1.04 | 1.35 | 1.09 | inactive |
| IL11RA (interleukin 11 receptor subunit alpha) | 0.47 | 0.7 | 0.38 | 0.34 | inactive |
| IGLON5 (IgLON family member 5) | 0.3 | 0.28 | 0.28 | 0.33 | inactive |
| TNRC6C (trinucleotide repeat containing adaptor 6C) | -0.26 | -0.37 | -0.22 | -0.19 | inactive |
| SNX31 (sorting nexin 31) | -0.72 | -0.47 | -1.02 | -0.68 | inactive |
| ZNF702P (zinc finger protein 702, pseudogene) | 1.3 | 1.15 | 1.65 | 1.09 | inactive |
| TIGD6 (tigger transposable element derived 6) | -1.05 | -0.86 | -1.16 | -1.12 | inactive |
| TSSC4 (tumor suppressing subtransferable candidate 4) | -0.19 | 0.39 | -0.31 | -0.64 | inactive |
| ZYG11B (zyg-11 family member B, cell cycle regulator) | -0.01 | -0.06 | 0.07 | -0.04 | inactive |
| UBTF (upstream binding transcription factor) | 0.63 | 0.43 | 0.58 | 0.9 | inactive |
| STOML3 (stomatin like 3) | 0.2 | 0.15 | 0.31 | 0.14 | inactive |
| HSFY2 (heat shock transcription factor Y-linked 2) | -0.18 | -0.23 | -0.31 | -0.01 | inactive |
| TOP1 (DNA topoisomerase I) | 1.8 | 1.29 | 1.83 | 2.3 | inactive |

Laid out differently: results already given.
gene knocked down | mean z-score | z-score, replicate A | z-score, replicate B | z-score, replicate C | call
IL11RA (interleukin 11 receptor subunit alpha) | 0.47 | 0.7 | 0.38 | 0.34 | inactive
IGLON5 (IgLON family member 5) | 0.3 | 0.28 | 0.28 | 0.33 | inactive
TNRC6C (trinucleotide repeat containing adaptor 6C) | -0.26 | -0.37 | -0.22 | -0.19 | inactive
